Results deposited as PubChem BioAssay AID1259414 (Drosophila RNAi Screening Center, 2018).
Purpose: 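Fly genes that alter Wolbachia amount inside host cells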 (primary screen). Cells: Drosophila JW18 cells infected with Wolbachia. Reagents: long dsRNA against Drosophila genes, 0.25 µg dsRNA per well of a 384-well plate. Timing: 5 days. Conditions: cells persistently infected with Wolbachia before knock-down; no added drug. Measurement: 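Imaged fluorescence in situ signal for Wolbachia 23S rRNA per DAPI-counted host cell, given as a robust z-score within each plate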. Scale: Wolbachia per cell robust z: higher = more Wolbachia per host cell than the plate typical. Call rule: 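Hit when robust z is 1.5 or more, or -1.5 or less, in at least two of three replicates; excludes dsRNAs with several or no targets, genes not expressed in JW18 and well A1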.
The screen tested about 24,000 reagents; this is an unselected part of those that have a named target and a result. Of all reagents, about 1,210 (5%) are marked active. 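Inactive calls also include excluded dsRNAs with several or no targets, genes unexpressed in JW18, and well A1, regardless of score.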 Entries without a mark were called inactive. A plus sign joins genes that one reagent is predicted to hit.

Wolbachia per cell robust z, rep 1	Wolbachia per cell robust z, rep 2	Wolbachia per cell robust z, rep 3	target	DRSC id
0.219	0.117	0.651	CG14947	DRSC02429
0.661	0.702	0.294	Grip71	DRSC02042
-0.263	-2.48	1.25	wun (wunen)	DRSC07719
-0.00387	1.08	0.784	CG8839	DRSC07285
0.00472	0.218	-9.62	Pax (Paxillin)	DRSC01703
0.328	-0.322	0.117	Pax (Paxillin)	DRSC02651
0.4	-0.351	-0.095	Pax (Paxillin)	DRSC02652
1.15	0.447	0.978	CG11076	DRSC17197
-0.133	-1.64	-0.746	CG44013 + CG44014	DRSC28897
0.0652	-0.638	0.0515	CG10175	DRSC13628
-4.76	0.597	1.19	CG10175	DRSC14200
-2.44	-0.219	-0.116	CG10175	DRSC21981
-0.266	0.547	1.07	sPLA2 (secretory Phospholipase A2)	DRSC06041
-0.554	-0.402	-0.237	sPLA2 (secretory Phospholipase A2)	DRSC26194
-0.204	-0.0417	-1.45	CG10383	DRSC02050
1.23	-0.0147	0.127	CG10383	DRSC29310
0.21	0.447	0.289	lab (labial)	DRSC12627
0.0752	-1.63	-0.815	lab (labial)	DRSC25048
-0.307	0.23	-1.95	CG12091	DRSC08251
-2.31 (active)	-2.92	-9.1	CG12091	DRSC24873
1.13	1.18	0.305	CG12091	DRSC41595
-0.384	-0.37	-0.478	CG34160	DRSC38919
0.482	0.78	-1.27	epsilonTry (epsilonTrypsin)	DRSC07611
-0.935	0.5	-0.77	epsilonTry (epsilonTrypsin)	DRSC25110
-0.673	-0.55	0.303	Alk (Anaplastic lymphoma kinase)	DRSC05918
-1.64 (active)	-0.601	-3.47	Alk (Anaplastic lymphoma kinase)	DRSC23342
-1.34	0.507	0.663	tn (thin)	DRSC05768
-0.061	-4.11	-0.205	tn (thin)	DRSC06532
-0.512	0.226	0.196	tn (thin)	DRSC27711
0.965	0.263	0.762	CG32163	DRSC09442
-3.44	-0.322	-0.314	CG32163	DRSC21888
0.675	-1.52	-0.359	CG32163	DRSC28736
-0.889	-2.51	-0.98	CG3528	DRSC00611
-0.00374	-0.155	-0.533	CG3528	DRSC26034
1.56 (active)	3.36	2.57	crn (crooked neck)	DRSC18184
2.01 (active)	2.69	2.51	crn (crooked neck)	DRSC18185
1.96 (active)	-4.47	2.08	crn (crooked neck)	DRSC18755
-0.535	-0.114	0.0102	CG32313	DRSC21450
-4.2	-0.102	-0.519	MED18 (Mediator complex subunit 18)	DRSC18549
1.03	-0.139	0.228	Dbx	DRSC08271
0.108	-0.653	0.144	Dbx	DRSC08394
0.0311	0.349	-0.126	Dbx	DRSC25311
-1.36	0.257	-1.26	Dbx	DRSC29604
-0.000528	-0.818	0.406	Dbx	DRSC39044
0.292	0.198	0.2	CG1421	DRSC03707
-0.0751	-0.436	-1.5	CG4297	DRSC00651

Reagents listed above called active (5):
Wolbachia per cell robust z, rep 1	Wolbachia per cell robust z, rep 2	Wolbachia per cell robust z, rep 3	target	DRSC id
-2.31 (active)	-2.92	-9.1	CG12091	DRSC24873
-1.64 (active)	-0.601	-3.47	Alk (Anaplastic lymphoma kinase)	DRSC23342
1.56 (active)	3.36	2.57	crn (crooked neck)	DRSC18184
2.01 (active)	2.69	2.51	crn (crooked neck)	DRSC18185
1.96 (active)	-4.47	2.08	crn (crooked neck)	DRSC18755

Continued:
Wolbachia per cell robust z, rep 1	Wolbachia per cell robust z, rep 2	Wolbachia per cell robust z, rep 3	target	DRSC id
-4.95	0.711	0.645	cta (concertina)	DRSC03769
0.538	0.76	-4.16	CG15563	DRSC15101
-1.77	0.646	-1.47	CG15563	DRSC27442
-0.239	-1.2	0.293	Setd3 (SET domain containing 3)	DRSC17840
0.478	-4.85	0.565	Setd3 (SET domain containing 3)	DRSC18269
-0.133 (active)	-2.63	-6.3	Roe1	DRSC07534
-9.49	1.21	1.21	Roe1	DRSC26435
-0.0533	0.853	0.546	Roe1	DRSC38972
0.113	0.261	-1.55	CG13318	DRSC14581
0.465	-0.0413	-0.299	CG14282	DRSC14763
-0.875	-2.57	-0.871	CG14282	DRSC26234
-2.2	1.47	0.744	CG4554	DRSC04473
-0.339	0.483	0.63	CG4554	DRSC27881
-0.152	-1.4	-0.247	asRNA:CR30267 (antisense RNA:CR30267)	DRSC21628
0.403	-0.242	0.663	CG1208	DRSC12190
-0.684	-1.62	0.234	yin	DRSC18854
-2.03	-0.919	-0.382	yin	DRSC21889
-0.182	0.88	-0.701	yin	DRSC38664
1.6	-1.38	-5.09	Patsas	DRSC02975
1.43	2.11	0.893	Patsas	DRSC28826
0.0432	-0.0457	0.201	otk2 (off-track2)	DRSC07303
0.0502	-0.44	0.546	Prx1 (Peroxiredoxin 1)	DRSC10741
-9.81	-0.0415	-0.766	Prx1 (Peroxiredoxin 1)	DRSC24401
-0.472	0.383	-6.65	xit (xiantuan)	DRSC18364
1.15	0.529	1.08	CG11906	DRSC06096
-12.3	-8.61	-3.09	Alp5 (Alkaline phosphatase 5)	DRSC14269
0.059	-2.61	0.132	Alp5 (Alkaline phosphatase 5)	DRSC29539
0.163	0.316	0.386	Alp5 (Alkaline phosphatase 5)	DRSC41615
0.517	-3.58	-0.321	BomT2 (Bomanin Tailed 2)	DRSC06631
-1.2	0.126	0.323	BomT2 (Bomanin Tailed 2)	DRSC41501
0.749	-0.149	0.723	Dek	DRSC07418
1.28	1.26	2.23	Dek	DRSC23928
1.07	1.3	0.165	Hr83 (Hormone receptor 83)	DRSC12521
-5.28	-1.02	-9	Hr83 (Hormone receptor 83)	DRSC25662
-0.267	-0.0933	0.385	Ets98B (Ets at 98B)	DRSC16666
-0.84	-1.76	-0.222	Ets98B (Ets at 98B)	DRSC24625
1.79	-0.651	1.16	Oatp33Eb (Organic anion transporting polypeptide 33Eb)	DRSC02955
-0.333	0.472	-0.181	mRpL33 (mitochondrial ribosomal protein L33)	DRSC18319
0.552	-1.95	-0.383	nub (nubbin)	DRSC02498
1.7	1.25	-0.973	nub (nubbin)	DRSC03583
-1.78	-2.27	-0.389	nub (nubbin)	DRSC23066
-0.169	0.357	0.139	nub (nubbin)	DRSC25610
-0.304	-0.0206	-5.47	nub (nubbin)	DRSC27113
0.0638	0.278	1.73	nub (nubbin)	DRSC28839
1.16	0.884	-3.55	nub (nubbin)	DRSC39102
